Data on one substance can be found in patent US20090181894A1, “CHIMERIC TOXINS FOR TARGETED THERAPY” (published 2009).

Assay [1] has as its target GnRH binding sites on neoplastic cells (plasma membranes of the SW-48 colon adenocarcinoma cell line in the binding assay).
Assay [2] shares this target. The source holds these as a separate data set.

The substance “Met-GnRH-PE66 chimeric toxin (from UniProt P01148)” gave an ID50, cytotoxic effect on a renal cell carcinoma primary culture (µg total protein/well) in assay [1] of 1.2. For the same substance, in assay [2], the ID50, cytotoxic activity on Caco2 colon adenocarcinoma cells (µg total protein/well) is 0.4; the ID50, cytotoxic activity on HT-29 colon adenocarcinoma cells (µg total protein/well) came out at 1.2; the ID50, cytotoxic activity on HeLa cervix adenocarcinoma cells (µg total protein/well) came out at 1.8; the ID50, cytotoxic activity on HepG2 hepatocarcinoma cells (µg total protein/well) came out at 0.3. The substance further came in with an ID50, cytotoxic activity on MDA MB-231 breast adenocarcinoma cells (µg total protein/well) in assay [2] of 2.3.
